The assay concerns the target Protein-L (UniProt Q51918). Kind of assay: SPR.
The substance ^CPMV2G12HL (antibody) came in with an other of 98.8%.
Take ^CPMV2G12HEL (antibody): the other was determined as 81.1%.
In turn, ^HT2G12HL (antibody) gave an other of 102%.
Consider ^HT2G12HEL (antibody), for which the other was determined as 92.4%.

The values are drawn from publication PMC2980466.
